The results in this text go back to paper PMC12239557, “Structure and stabilization of the antigenic glycoprotein building blocks of the New World mammarenavirus spike complex” (mBio, 2025).

For this assay, the target named is JUNV GP1 subunit of the JUNV GP1^88-329GP2^e constructs (Junin virus, XJ13 (GenBank ACO52428), UniProt C1K9J9, strain, […] N-linked glycans ordered at Asn95, Asn166 and Asn178). To be noted: both partners purified.

B1: Fab fragment of neutralizing monoclonal antibody JUN1 (Fab, V domains shown)
VH: LVQSVETGGGLVRPGNSLKLSCVTSGFTFSNYQMHWLRQPPGKRLEWIAVITVKSDNYGANYVESVKGRFAISRDDSKSSVYLEMNRLREEDTATYFCSRSGIYDGYYAYAMDYWGQGTSVTVSS
VL: SVVMTQSQKFMSTSVGDRVSITCKASQIVGTSVAWYQQKAGQSPKLLIYWASTRHTGVPDRFTAGGSGTDFTLTITNVQSEDLADYFCQQYATYPLTFGSGTKLELK
Take B1: the binding result is listed as “binds”.
